Pooled drug test results. Numbers come from NIAID ChemDB, via PubChem.

All rows: tests in culture; species: Mycobacterium avium complex

Rows are shuffled and stem from different studies. ECn: concentration that inhibits the pathogen or its effect by n%. A number after MIC or MFC names an inhibition level or a share of isolates. Blank or dashed fields: not listed here.

compound	endpoint	cell line	strain or isolate	value
O=c1c2ccccc2sn1CCO	MIC		AN1	32 µg/mL
CO[C@H]1/C=C/O[C@@]2(C)Oc3c(C)c(O)c4c(O)c(c(N5CCN(Cc6c(C)cc(C)cc6C)CC5)c(O)c4c3C2=O)NC(=O)/C(C)=C\C=C\[C@H](C)[C@H](O)[C@@H](C)[C@@H](O)[C@@H](C)[C@H](OC(C)=O)[C@@H]1C	Mean MIC		67 strains (HIV+)	0.33 µg/mL
C/C(=N\NC(N)=S)c1cccnc1	MIC		108	1 µg/mL
C[C@H]1C[C@H](N)CN1c1cc2c(cc1F)c(=O)c(C(=O)O)cn2-c1ccc(F)cc1F	MBC90		25 isolates	>8 µg/mL
Cc1cc(-c2cc3c(cc2F)c(=O)c(C(=O)O)cn3C2CC2)cc(C)n1	MIC90		30 strains	1 µg/mL
CC(C)NC(=O)OCCn1sc2ccccc2c1=O	MIC		ATCC 15769	16 µg/mL
CC[C@H]1OC(=O)[C@H](C)[C@@H](O[C@H]2C[C@@](C)(OC)[C@@H](O)[C@H](C)O2)[C@H](C)[C@@H](O[C@@H]2O[C@H](C)C[C@H](N(C)C)[C@H]2O)[C@](C)(OC)C[C@@H](C)C(=O)[C@H](C)[C@@H](O)[C@]1(C)O	MBC		N-444	>64 µg/mL
CC[C@H]1OC(=O)[C@H](C)[C@@H](O[C@H]2C[C@@](C)(OC)[C@@H](OC(C)=O)[C@H](C)O2)[C@H](C)[C@@H](O[C@@H]2O[C@H](C)C[C@H](N(C)C)[C@H]2OC(=O)NN)C(C)(O)C[C@@H](C)/C(=N\OCCCC2CCCCC2)[C@H](C)[C@@H](O)[C@]1(C)O	MIC		20039 (clarithromycin-susceptible)	3.13 µg/mL
CC(C)(C)NC(=O)OCCN=c1ssc2ccccc12	MIC		ISS 486	4 µg/mL
CC[C@H]1OC(=O)[C@H](C)[C@@H](O[C@H]2C[C@@](C)(OC)[C@@H](O)[C@H](C)O2)[C@H](C)[C@@H](O[C@@H]2O[C@H](C)C[C@H](N(C)C)[C@H]2O)[C@](C)(OC)C[C@@H](C)C(=O)[C@H](C)[C@@H](O)[C@]1(C)O	MBC		ATCC 35718	2 µg/mL
N[C@@H]1CN(c2c(F)cc3c(=O)c(C(=O)O)cn([C@@H]4C[C@@H]4F)c3c2Cl)CC12CC2	EC50	Macrophages	100	<10 µg/mL
COc1cccc2c1nc1cccc(OC)c1[n+]2[O-]	MIC50		5 strains	8 µg/mL
CCNC(=O)O[C@H]1C(O[C@@H]2[C@@H](C)[C@H](O[C@H]3C[C@@](C)(OC)[C@@H](OC(C)=O)[C@H](C)O3)[C@@H](C)C(=O)O[C@H](CC)[C@@](C)(O)[C@H](O)[C@@H](C)/C(=N/OCCCC3CCCCC3)[C@H](C)CC2(C)O)O[C@H](C)C[C@@H]1N(C)C	MIC		20045	12.5 µg/mL
CCCNC(=O)OCCN=c1ssc2ccccc12	MIC		ATCC 15769	4 µg/mL
CC[C@H]1OC(=O)[C@H](C)[C@@H](O[C@H]2C[C@@](C)(OC)[C@@H](OC(C)=O)[C@H](C)O2)[C@H](C)[C@@H](OC2O[C@H](C)C[C@H](N(C)C)[C@H]2OC(=O)NC)C(C)(O)C[C@@H](C)/C(=N\OCCCC2CCCCC2)[C@H](C)[C@@H](O)[C@]1(C)O	MIC		20045	3.13 µg/mL
CO[C@H]1/C=C/O[C@@]2(C)Oc3c(C)c(O)c4c(O)c(c5c(c4c3C2=O)NC2(CCN(CC(C)C)CC2)N=5)=NC(=O)/C(C)=C\C=C\[C@H](C)[C@H](O)[C@@H](C)[C@@H](O)[C@@H](C)[C@H](OC(C)=O)[C@@H]1C	MIC		F	0.5 µg/mL
CC(C)NC(=O)OCCN=c1ssc2ccccc12	MIC		AN3	2 µg/mL
NC1CCN(c2c(F)cc3c(=O)c(C(=O)O)cn(C4CC4)c3c2Cl)C1	MIC50		25 isolates	>8 µg/mL
CCNC(=O)OCCN=c1ssc2ccccc12	MIC		AN3	4 µg/mL
CC/C=C/CCNC(=O)O[C@H]1C(O[C@@H]2[C@@H](C)[C@H](O[C@H]3C[C@@](C)(OC)[C@@H](OC(C)=O)[C@H](C)O3)[C@@H](C)C(=O)O[C@H](CC)[C@@](C)(O)[C@H](O)[C@@H](C)/C(=N/OCCCC3CCCCC3)[C@H](C)CC2(C)O)O[C@H](C)C[C@@H]1N(C)C	MIC		20034	0.1 µg/mL
CCCCCCCCO[C@H]1O[C@H](CO[C@H]2O[C@H](CO)[C@@H](O)[C@@H]2O)[C@@H](OC)[C@@H]1OC	MIC		NJ211	>128 µg/mL
COc1cccc2c1n([O-])c1cccc(OC)c1[n+]2=O	MIC		100	16 µg/mL
CCCCCCCCNC(=O)O[C@H]1C(O[C@@H]2[C@@H](C)[C@H](O[C@H]3C[C@@](C)(OC)[C@@H](OC(C)=O)[C@H](C)O3)[C@@H](C)C(=O)O[C@H](CC)[C@@](C)(O)[C@H](O)[C@@H](C)/C(=N/OCCCC3CCCCC3)[C@H](C)CC2(C)O)O[C@H](C)C[C@@H]1N(C)C	MIC		20034	0.2 µg/mL
CCCCCCCCO[C@H]1O[C@H](CO[C@H]2O[C@H](CO)[C@@H](O)[C@@H]2O)[C@@H](O)[C@@H]1O	MIC		NJ211	>128 µg/mL
CO[C@H]1/C=C/O[C@@]2(C)Oc3c(C)c(O)c4c(=O)c(c5oc6cc(N7CCN(CC(C)C)CC7)cc(=O)c6nc5c4c3=C2O)NC(=O)/C(C)=C\C=C\[C@H](C)[C@H](O)[C@@H](C)[C@@H](O)[C@@H](C)[C@H](OC(C)=O)[C@@H]1C	MIC90			0.25 µg/mL
CC[C@H]1OC(=O)[C@H](C)[C@@H](O[C@H]2C[C@@](C)(OC)[C@@H](OC(C)=O)[C@H](C)O2)[C@H](C)[C@@H](O[C@@H]2O[C@H](C)C[C@H](N(C)C)[C@H]2OC(=O)NNCc2cccnc2)C(C)(O)C[C@@H](C)/C(=N\OCCCC2CCCCC2)[C@H](C)[C@@H](O)[C@]1(C)O	MIC		20092 (clarithromycin-resistant)	1.56 µg/mL
CCCCNC(=O)OCCn1sc2ccccc2c1=O	MIC		AN2	>32 µg/mL
O=C(N1CCC(CN=c2cc3n(-c4ccc(Cl)cc4)c4ccccc4nc-3cc2Nc2ccc(Cl)cc2)CC1)N1CC1	MIC		100	≥16 µg/mL
CCCCNC(=O)O[C@H]1C(O[C@@H]2[C@@H](C)[C@H](O[C@H]3C[C@@](C)(OC)[C@@H](OC(C)=O)[C@H](C)O3)[C@@H](C)C(=O)O[C@H](CC)[C@@](C)(O)[C@H](O)[C@@H](C)/C(=N/OCCCC3CCCCC3)[C@H](C)CC2(C)O)O[C@H](C)C[C@@H]1N(C)C	MIC		20045	0.2 µg/mL
CCCNNC(=O)O[C@H]1[C@H](O[C@@H]2[C@@H](C)[C@H](O[C@H]3C[C@@](C)(OC)[C@@H](OC(C)=O)[C@H](C)O3)[C@@H](C)C(=O)O[C@H](CC)[C@@](C)(O)[C@H](O)[C@@H](C)/C(=N/OCCCC3CCCCC3)[C@H](C)CC2(C)O)O[C@H](C)C[C@@H]1N(C)C	MIC		20092 (clarithromycin-resistant)	0.78 µg/mL
CC1(C)N=C(N)N=C(N)N1OCCCOc1cc(Cl)c(Cl)cc1Cl	MIC		NKJ002A	4 µg/mL
CC[C@H]1OC(=O)[C@H](C)[C@@H](O[C@H]2C[C@@](C)(OC)[C@@H](OC(C)=O)[C@H](C)O2)[C@H](C)[C@@H](O[C@@H]2O[C@H](C)C[C@H](N(C)C)[C@H]2O)C(C)(O)C[C@@H](C)/C(=N\OCCc2ccccc2)[C@H](C)[C@@H](O)[C@]1(C)O	MIC		20039 (clarithromycin-susceptible)	1.56 µg/mL
C[C@H]1COc2c(N3CCN(C)CC3)c(F)cc3c(=O)c(C(=O)O)cn1c23	MBC90		25 isolates	>8 µg/mL

A second listing of 4 rows from above:

compound | endpoint | cell line | strain or isolate | value
CC[C@H]1OC(=O)[C@H](C)[C@@H](O[C@H]2C[C@@](C)(OC)[C@@H](OC(C)=O)[C@H](C)O2)[C@H](C)[C@@H](O[C@@H]2O[C@H](C)C[C@H](N(C)C)[C@H]2OC(=O)NNCc2cccnc2)C(C)(O)C[C@@H](C)/C(=N\OCCCC2CCCCC2)[C@H](C)[C@@H](O)[C@]1(C)O | MIC |  | 20092 (clarithromycin-resistant) | 1.56 µg/mL
CCCCNC(=O)O[C@H]1C(O[C@@H]2[C@@H](C)[C@H](O[C@H]3C[C@@](C)(OC)[C@@H](OC(C)=O)[C@H](C)O3)[C@@H](C)C(=O)O[C@H](CC)[C@@](C)(O)[C@H](O)[C@@H](C)/C(=N/OCCCC3CCCCC3)[C@H](C)CC2(C)O)O[C@H](C)C[C@@H]1N(C)C | MIC |  | 20045 | 0.2 µg/mL
C[C@H]1C[C@H](N)CN1c1cc2c(cc1F)c(=O)c(C(=O)O)cn2-c1ccc(F)cc1F | MBC90 |  | 25 isolates | >8 µg/mL
CCCNNC(=O)O[C@H]1[C@H](O[C@@H]2[C@@H](C)[C@H](O[C@H]3C[C@@](C)(OC)[C@@H](OC(C)=O)[C@H](C)O3)[C@@H](C)C(=O)O[C@H](CC)[C@@](C)(O)[C@H](O)[C@@H](C)/C(=N/OCCCC3CCCCC3)[C@H](C)CC2(C)O)O[C@H](C)C[C@@H]1N(C)C | MIC |  | 20092 (clarithromycin-resistant) | 0.78 µg/mL